Compound potency records, mixed from different reports. Data source: NIAID ChemDB in PubChem.

Shared fields: tests in culture; agent: Human cytomegalovirus; method: plaque count; read-out: EC50

Blank or dashed fields: not listed here. a–b is a range or a potency band. ECn: concentration that inhibits the pathogen or its effect by n%. Neighbouring rows are from separate reports.

{"structure": "C=CCNc1nc(N)nc2c1ncn2/C=C1/C[C@@H]1CO", "cells": "HFF", "strain or isolate": "AD169", "value": "2.8 µM"}
{"structure": "Nc1nc2c(ncn2C[C@]2(CO)C[C@H]2CO)c(=O)[nH]1", "cells": "HEL", "strain or isolate": "AD169", "value": "8 µg/mL"}
{"structure": "CC(C)Nc1nc(N)nc2c1ncn2/C=C1/C[C@@H]1CO", "cells": "HFF", "strain or isolate": "AD169", "value": ">365 µM"}
{"structure": "Nc1nc2c(ncn2/C=C2/CC2(CO)CO)c(=O)[nH]1", "cells": "HFF", "strain or isolate": "AD169", "value": "1.3 µM"}
{"structure": "O=C1c2ccccc2C(=O)N1CCCC12CC3CC(CC(C3)C1)C2", "cells": "HEL", "strain or isolate": "AD169", "value": "≥4 µg/mL"}
{"structure": "O=C(NCc1ccc(Cl)cc1)c1cn2c3c(cc(CN4CCOCC4)cc3c1=O)OC(c1cccnc1)C2", "cells": "HFF", "strain or isolate": "PFA/R B300 (PFA-resistant)", "value": "4.1 µM"}
{"structure": "Nc1nc2c(ncn2COC(CO)CO)c(=O)[nH]1", "cells": "MRC-5", "strain or isolate": "Isolate T137", "value": "3.48 µM"}
{"structure": "O=C(NCc1ccc(Cl)cc1)c1c[nH]c2ccc(CCCO)cc2c1=O", "strain or isolate": "GDGrP53", "value": "0.2 µM"}
{"structure": "O=C1c2ccccc2[C@@]2(O)C3C4C[C@H]5CC(C[C@H]3C5)C4N12", "cells": "HEL", "strain or isolate": "DAVIS", "value": "10 µg/mL"}
{"structure": "CCCCCCCCCCCCCCCCOP(=O)(O)CO[C@H](CO)Cn1ccc(N)nc1=O", "cells": "HFF", "strain or isolate": "VR4760 (foscarnet-resistant)", "value": "0.01 µM"}
{"structure": "CC[Si]1(C(C)C)O[C@H]2[C@@H](O)[C@H](c3ccccc3)O[C@@H]2CO[Si](C(C)C)(C(C)C)O1", "cells": "HEL", "strain or isolate": "AD169", "value": "1.2 µg/mL"}
{"structure": "CCCCCOc1nc(N)nc2c1ncn2/C=C1/C[C@@H]1CO", "cells": "HFF", "strain or isolate": "AD169", "value": "1.4 µM"}
{"structure": "Nc1nc2c(ncn2COC(CO)CO)c(=O)[nH]1", "cells": "HFF", "strain or isolate": "D10 (BDCRB- and maribavir-resistant)", "value": "12.7 µM"}
{"structure": "CCCCCCCCCCCCCCCCCCOCCCOP1(=O)CO[C@@H](Cn2ccc(N)nc2=O)CO1", "cells": "HFF", "strain or isolate": "AD169", "value": "0.002 µM"}
{"structure": "Nc1nc2c(ncn2COC(CO)CO)c(=O)[nH]1", "strain or isolate": "D10 (D341E)", "value": "5.4 µM"}
{"structure": "Nc1ccn(C[C@@H](CO)OCP(=O)(O)O)c(=O)n1", "cells": "HFF", "strain or isolate": "759rD100", "value": "3.2 µM"}
{"structure": "Nc1ccn(C=C2C[C@H]2CO)c(=O)n1", "cells": "HFF", "strain or isolate": "AD169", "value": "23.8 µM"}
{"structure": "CO[C@@H]1[C@H](O)[C@@H](CO)O[C@H]1c1ccccc1", "cells": "HEL", "strain or isolate": "AD169", "value": ">50 µg/mL"}
{"structure": "Nc1nc2c(ncn2COC(CO)CO)c(=O)[nH]1", "cells": "HEL", "strain or isolate": "DAVIS", "value": "15.7 µM"}
{"structure": "C[C@@H]1O[C@@H](n2c(Cl)nc3cc(Cl)c(Cl)cc32)[C@H](O)[C@@H]1O", "cells": "HFF", "strain or isolate": "C4 (BDCRB- maribavir-resistant)", "value": "0.95 µM"}
{"structure": "Cc1ccc(S(=O)(=O)NC(N)=NCCC[C@H](NC(=O)OCc2cccnc2)C(=O)N[C@H](C(=O)N[C@H](C=O)Cc2ccccc2)C(C)(C)C)cc1", "cells": "HELF", "strain or isolate": "DAVIS", "value": "0.39 µM"}
{"structure": "CC/C=C\\Cn1c(=O)sc2c(=O)[nH]c(N)nc21", "strain or isolate": "TOWNE", "value": "0.56 µM"}
{"structure": "Cn1cc(C(=O)NCc2ccc(Cl)cc2)c(=O)c2cc(CN3CCOCC3)ccc21", "cells": "HFF", "strain or isolate": "TOWNE", "value": "2.1 µM"}
{"structure": "Nc1nc2c(ncn2COC(CO)CO)c(=O)[nH]1", "cells": "HEL", "strain or isolate": "LY9990", "value": "7.5 µg/mL"}
{"structure": "CO[C@H]1[C@H]2O[Si](C(C)C)(C(C)C)O[Si](C(C)C)(C(C)C)OC[C@@H]2O[C@@H]1c1ccccc1", "cells": "HEL", "strain or isolate": "DAVID", "value": "1.3 µg/mL"}
{"structure": "Nc1ccn(C[C@@H](CO)OCP(=O)(O)O)c(=O)n1.O=C(O)P(=O)(O)O", "cells": "MRC-5", "strain or isolate": "PAAR", "value": "1.24 µM"}
{"structure": "O=C1c2ccccc2C(=O)N1C12CC3CC(CC(C3)C1)C2", "cells": "HEL", "strain or isolate": "DAVIS", "value": ">100 µg/mL"}
{"structure": "C=CCOc1nc(N)nc2c1ncn2/C=C1/C[C@@H]1CO", "cells": "HFF", "strain or isolate": "AD169", "value": "2.1 µM"}
{"structure": "O=C(O)P(=O)(O)O", "cells": "HEL", "strain or isolate": "Ganciclovir-resistant", "value": "60.6 µM"}
{"structure": "O=C1c2ccccc2C(=O)N1CC12CC3CC(CC(O)(C3)C1)C2", "cells": "HEL", "strain or isolate": "AD169", "value": ">20 µg/mL"}
{"structure": "OC[C@H]1O[C@@H](n2c(Cl)nc3cc(Cl)c(Cl)cc32)[C@H](O)[C@@H]1O", "cells": "MRC-5", "strain or isolate": "1038RB 8-3-3 (plaque-purified 1038RB strain)", "value": ">50 µM"}
{"structure": "CCCCCCCC/C=C\\CCCCCCCOCCCOP(=O)(O)CO[C@H](CO)Cn1ccc(N)nc1=O", "cells": "HFF", "strain or isolate": "VR4955 (foscarnet-resistant)", "value": "0.002 µM"}
{"structure": "O=C(O)P(=O)(O)O", "cells": "MRC-5", "strain or isolate": "PAAR", "value": "93.99 µM"}
{"structure": "CCCSc1nc(N)nc2c1ncn2/C=C1/C[C@@H]1CO", "cells": "HFF", "strain or isolate": "AD169", "value": "3 µM"}
{"structure": "C/C(=N/Nc1nc(-c2ccc(C)cc2)cs1)c1ccc(NC(=O)CN2C(=O)c3ccccc3S2(=O)=O)cc1", "cells": "HEL", "strain or isolate": "DAVIS", "value": "20 µM"}
{"structure": "O=C1c2cccc([N+](=O)[O-])c2C(=O)N1C12CC3CC(CC(C3)C1)C2", "cells": "HEL", "strain or isolate": "DAVIS", "value": ">100 µg/mL"}
{"structure": "Nc1ccn(C[C@@H](CO)OCP(=O)(O)O)c(=O)n1", "cells": "MRC-5", "strain or isolate": "C8805-37 (ganciclovir-resistant)", "value": "0.33 µg/mL"}
{"structure": "O=C(NCc1ccc(Cl)cc1)c1c[nH]c2ccc(C#CCO)cc2c1=O", "strain or isolate": "DAVIS", "value": "1 µM"}
{"structure": "Nc1nc2c(ncn2[C@@H]2C[C@H](CO)[C@H]2CO)c(=O)[nH]1.O=C(O)P(=O)(O)O", "cells": "MRC-5", "strain or isolate": "PAAR", "value": "0.91 µM"}
{"structure": "C/C(=N/NC(N)=S)c1ccc(NC(=O)CN2C(=O)c3ccccc3S2(=O)=O)cc1", "cells": "HEL", "strain or isolate": "DAVIS", "value": ">100 µM"}
{"structure": "CCCCCCCCCCCCOCCCOP(=O)(O)CO[C@H](CO)Cn1ccc(N)nc1=O", "cells": "HFF", "strain or isolate": "759rD100", "value": "0.002 µM"}
{"structure": "Nc1nc2c(ncn2C[C@@H]2CC[C@@H](P(=O)(O)O)O2)c(=O)[nH]1", "cells": "HFF", "strain or isolate": "AD169", "value": "0.08 µg/mL"}
{"structure": "Nc1cccc2c1C(=O)N(C1C3CC4CC(C3)CC1C4)C2=O", "cells": "HEL", "strain or isolate": "DAVIS", "value": "63 µg/mL"}
{"structure": "NC1=NC2C(C=CN2CC(CO)CCO)C(=O)N1", "value": "10–100 µM"}
{"structure": "CCCCCCCCCCCCCCCCCCOC[C@H](COP(=O)(O)CO[C@H](CO)Cn1ccc(N)nc1=O)OCc1ccccc1", "cells": "HFF", "strain or isolate": "DAVIS", "value": "0.006 µM"}
{"structure": "CC(=O)NS(=O)(=O)c1cc(C)c(NC(=O)CN2C(=O)c3ccccc3S2(=O)=O)cc1C", "cells": "HEL", "strain or isolate": "AD169", "value": ">100 µM"}
{"structure": "O=C1NC23CC4CC(C2)C2C(C4)C3C2(O)c2ccccc21", "cells": "HEL", "strain or isolate": "DAVIS", "value": ">100 µg/mL"}
{"structure": "Nc1ccn(C[C@H]2COP(=O)(O)CO2)c(=O)n1.O=C(O)P(=O)(O)O", "cells": "MRC-5", "strain or isolate": "Towne (ganciclovir- foscarnet-susceptible)", "value": "1.01 µM"}
{"structure": "CCCOc1nc(N)nc2c1ncn2/C=C1/C[C@@H]1CO", "cells": "HFF", "strain or isolate": "TOWNE", "value": "0.4 µM"}
{"structure": "O=C1c2ccccc2C(=O)N1[C@H]1CC2CC3CC(C2)C1C3", "cells": "HEL", "strain or isolate": "DAVIS", "value": ">20 µg/mL"}
{"structure": "OC[C@@H]1O[C@@H](n2c(Cl)nc3cc(Cl)c(Cl)cc32)[C@H](O)[C@@H]1O", "cells": "HFF", "strain or isolate": "R56 (BDCRB- maribavir-resistant)", "value": "51 µM"}
{"structure": "COc1cccc(N2CCN(C3=Nc4c(F)cccc4[C@H](CC(=O)O)N3c3cc(C(F)(F)F)ccc3OC)CC2)c1", "strain or isolate": "GDGrXbaF4", "value": "0.0026 µM"}
{"structure": "NC(=O)c1c(Cl)c(-c2cccnc2)n2c1CCCC2", "cells": "HEL", "strain or isolate": "AD169", "value": "0.07 µM"}
{"structure": "O=C1c2ccccc2[C@@]2(O)[C@H]3C4CC5CC(C4)CC3(C5)CN12", "cells": "HEL", "strain or isolate": "DAVIS", "value": ">20 µg/mL"}
{"structure": "O=C(NCc1ccc(Cl)cc1)c1c[nH]c2c(F)cccc2c1=O", "strain or isolate": "SCH", "value": "14 µM"}
{"structure": "OC[C@H]1O[C@@H](n2c(Br)nc3cc(Cl)c(Cl)cc32)[C@H](O)[C@@H]1O", "strain or isolate": "48041 (GCV-susceptible)", "value": "0.64 µM"}

The last 6 rows once more:

structure,cells,strain or isolate,value
OC[C@@H]1O[C@@H](n2c(Cl)nc3cc(Cl)c(Cl)cc32)[C@H](O)[C@@H]1O,HFF,R56 (BDCRB- maribavir-resistant),51 µM
COc1cccc(N2CCN(C3=Nc4c(F)cccc4[C@H](CC(=O)O)N3c3cc(C(F)(F)F)ccc3OC)CC2)c1,,GDGrXbaF4,0.0026 µM
NC(=O)c1c(Cl)c(-c2cccnc2)n2c1CCCC2,HEL,AD169,0.07 µM
O=C1c2ccccc2[C@@]2(O)[C@H]3C4CC5CC(C4)CC3(C5)CN12,HEL,DAVIS,>20 µg/mL
O=C(NCc1ccc(Cl)cc1)c1c[nH]c2c(F)cccc2c1=O,,SCH,14 µM
OC[C@H]1O[C@@H](n2c(Br)nc3cc(Cl)c(Cl)cc32)[C@H](O)[C@@H]1O,,48041 (GCV-susceptible),0.64 µM